{"source": "paper PMC9394474", "about": "(Viruses, 2022)", "binders": {"B1": {"name": "MNV NS6 C-terminal peptide (peptide)", "peptide": "LEALEFQ", "notes": "source: synthetic peptide (GenScript, Oxford, UK)"}, "B2": {"name": "MNV NS3 C-terminal peptide (peptide)", "peptide": "HDDFGLQ", "notes": "as for B1"}, "B3": {"name": "CVB3 2BC C-terminal peptide (peptide)", "peptide": "TIEALFQ", "notes": "source: synthetic peptide (DesignerBioscience, Cambridge, UK)"}}, "key": {"human hisTRIM7-PRYSPRY [1]": {"target": "T1, human hisTRIM7-PRYSPRY (human, UniProt Q9C029 342-511)", "T1 construct": "vector pOPTH; also called hTRIM7-PRYSPRY; hTRIM7", "test": "ITC", "conditions": "both partners purified"}, "human hisTRIM7-PRYSPRY [2]": {"target": "T1, human hisTRIM7-PRYSPRY", "test": "crystal structure; TRIM7 PRYSPRY co-crystallised with added synthetic peptide", "conditions": "both partners purified"}}, "data": [{"binder": "B1", "values": [{"measurement": "binding result", "setting": "human hisTRIM7-PRYSPRY [1]", "result": "binds"}]}, {"binder": "B2", "values": [{"measurement": "binding result", "setting": "human hisTRIM7-PRYSPRY [1]", "result": "binds"}]}, {"binder": "B3", "values": [{"measurement": "binding result", "setting": "human hisTRIM7-PRYSPRY [2]", "result": "binds"}]}]}
